Measurements taken from patent US20040235012A1, “Method of detecting antibiotic resistance in microorganisms” (priority 2003, published 2004).

System: MRSA and borderline S. aureus strains
Test: Screening of MRSA and borderline S. aureus strains on chromogenic agar supplemented with a β-lactam
Assay type: cell-based, Staphylococcus aureus
Conditions: for Sensitivity: 35-37 °C, 24 hours
[1] = moxalactam at 16 ug/ml in chromogenic agar, 22 strains
[2] = safoxitin at 6 ug/ml in chromogenic agar, 22 strains
[3] = cefmetazole at 2.25 ug/ml in chromogenic agar, 11 strains
[4] = ceftazidime at 16 ug/ml in chromogenic agar, 21 strains

CO[C@@]1(NC(=O)C(C(=O)O)c2ccc(O)cc2)C(=O)N2C(C(=O)O)=C(CSc3nnnn3C)CO[C@@H]21 (stereo partly shown) [MOX, moxalactam]
Accuracy [1]: 90.9 percentage | Negative Predictive Value [1]: 71.4 percentage | Positive Predictive Value [1]: 100 percentage | Specificity [1]: 100 percentage | Sensitivity [1]: 88.2 percentage

CO[C@@]1(NC(=O)Cc2cccs2)C(=O)N2C(C(=O)O)=C(COC(N)=O)CS[C@@H]21 [FOX, safoxitin]
Accuracy [2]: 90.9 percentage | Negative Predictive Value [2]: 71.4 percentage | Positive Predictive Value [2]: 100 percentage | Specificity [2]: 100 percentage | Sensitivity [2]: 88.2 percentage

CO[C@@]1(NC(=O)CSCC#N)C(=O)N2C(C(=O)O)=C(CSc3nnnn3C)CS[C@@H]21 [CMZ, cefmetazole]
Accuracy [3]: 90.9 percentage | Negative Predictive Value [3]: 100 percentage | Positive Predictive Value [3]: 90 percentage | Specificity [3]: 50 percentage | Sensitivity [3]: 100 percentage

CC(C)(O/N=C(\C(=O)N[C@@H]1C(=O)N2C(C(=O)[O-])=C(C[n+]3ccccc3)CS[C@H]12)c1csc(N)n1)C(=O)O [CAZ, ceftazidime]
Accuracy [4]: 42.9 percentage | Negative Predictive Value [4]: 20 percentage | Positive Predictive Value [4]: 100 percentage | Specificity [4]: 100 percentage
